Measured values from several laboratories, pooled; numbers as filed in NIAID ChemDB.

All rows: growth or infection tests; organism: HIV-1; cells: MT-4; endpoint: EC50

Rows are shuffled and stem from different studies.

compound,strain or isolate,mutations,read by,value
C#CCn1cnc2c(=O)[nH]c(NC(C)=O)nc21,IIIB,,cytopathic effect,>100 µg/mL
CNC(=O)c1ccccc1CNC(=O)c1nc(N2CCCCS2(=O)=O)c2cccnc2c1O,,,p24,<5 µM
CCOC(=O)c1cnn2c1n[n+]([O-])c1ccc(Cl)cc12,IIIB,,cytopathic effect / MTT,>13 µM
CC(C)CN(C[C@@H](O)[C@H](Cc1ccccc1)NC(=O)OCc1cncs1)S(=O)(=O)c1ccc2nc(NC(=O)CN3CCNCC3)sc2c1,IIIB,,cytopathic effect / MTT,0.0288 µM
Cc1cc(-c2ccc(C#N)cc2)ccc1Oc1nc(Nc2ccc(C#N)cc2)nc2ccsc12,IIIB,,MTT,0.0545 µM
O=C(/C=C/c1ccc(Cl)c(Cl)c1)/C=C/c1ccc(Cl)c(Cl)c1,,,cytopathic effect / MTT,>200 µM
CC(C)CN(C[C@@H](O)[C@H](Cc1ccccc1)NC(=O)O[C@H]1CCOC1)S(=O)(=O)c1ccc2nc(NCCN(C)C)sc2c1,R13025,,cytopathic effect / MTT,0.302 µM
CNC(=O)c1cc(F)ccc1CNC(=O)c1nc(N2CCCN(C)S2(=O)=O)c2cccnc2c1O,,,p24,<5 µM
CCCCCCCCCCCCOC(=O)c1cc(O)c(O)c(O)c1,IIIB,,cytopathic effect / MTT,>3.1 µg/mL
COP(=O)(c1cc(C)cc(CCC#N)c1)c1c(C(N)=O)[nH]c2ccc(Cl)c(F)c12,NL4-3,Y181C,p24 / ELISA,0.0039 µM
Cc1nnc(-c2ccc(C(=O)NC(C)(C)C(=O)N[C@@]34CC[C@]5(C)[C@H](CC[C@@H]6[C@@]7(C)CC[C@H](OC(=O)C8C[C@@H](C(=O)O)C8(C)C)C(C)(C)[C@@H]7CC[C@]65C)C3=C(C(C)C)C(=O)C4)cc2)o1,NL4-3,V7A,p24,0.01001–0.05 µM
O=C(OC[C@H]1O[C@@H](OC(=O)c2cc(O)c(O)c(O)c2)[C@H](OC(=O)c2cc(O)c(O)c(O)c2)[C@@H](OC(=O)c2cc(O)c(O)c(O)c2)[C@@H]1O)c1cc(O)c(O)c(O)c1,IIIB,,cytopathic effect / MTT,>50 µg/mL
CC(C)CN(C[C@@H](O)[C@H](Cc1ccccc1)NC(=O)OCc1cncs1)S(=O)(=O)c1ccc2nc(N(C)C(=O)CN3CCN(C)CC3)sc2c1,IIIB,,cytopathic effect / MTT,0.0056 µM
CN(C)C(=O)c1cc(F)ccc1CNC(=O)c1nc(N(C)S(C)(=O)=O)c2cccnc2c1O,,,p24,<5 µM
O=C(OC1OC2COC(=O)c3cc(Oc4c(C(=O)OC5OC6COC(=O)c7cc(O)c(O)c(O)c7-c7c(cc(O)c(O)c7O)C(=O)OC6C(OC(=O)c6cc(O)c(O)c(O)c6)C5OC(=O)c5cc(O)c(O)c(O)c5)cc(O)c(O)c4O)c(O)c(O)c3-c3c(cc(O)c(O)c3O)C(=O)OC2C(OC(=O)c2cc(O)c(O)c(O)c2)C1OC(=O)c1cc(O)c(O)c(O)c1)c1cc(O)c(O)c(O)c1,IIIB,,cytopathic effect / MTT,11.8 µg/mL
CC(C)CN(C[C@@H](O)[C@H](Cc1ccccc1)NC(=O)[C@@H](NC(=O)CNCc1cccc(F)c1)C(C)(C)C)S(=O)(=O)c1ccc2nc(NCCN3CCCC3)sc2c1,IIIB,,cytopathic effect / MTT,0.0575 µM
CCC(O)c1cnc(Nc2ccc(C#N)cc2)nc1Nc1c(C)cc(/C=C/C#N)cc1C,Y181C,,,0.06166 µM
O=[N+]([O-])c1cnn2c1n[n+]([O-])c1ccccc12,IIIB,,cytopathic effect / MTT,>1.8 µM
O=CC(OC(=O)c1cc(O)c(O)c(O)c1Oc1cc2c(c(O)c1O)-c1c(cc(O)c(O)c1O)C(=O)OC(C(OC(=O)c1cc(O)c(O)c(O)c1)C(C=O)OC(=O)c1cc(O)c(O)c(O)c1)C(O)COC2=O)C(OC(=O)c1cc(O)c(O)c(O)c1)C1OC(=O)c2cc(O)c(O)c(O)c2-c2c(cc(O)c(O)c2O)C(=O)OCC1O,IIIB,,cytopathic effect / MTT,>50 µg/mL
CC(=O)OCCOCn1cc(Cn2cc(I)c(=O)[nH]c2=O)nn1,IIIB,,cytopathic effect,>100 µg/mL
Cc1cc(/C=C/C#N)cc(C)c1Nc1nc(Nc2ccc(C#N)cc2)ncc1C(O)c1nc2ccccc2s1,PSI (IIIB),,,1120 µM
OC1/C(=C/c2ccc(Cl)c(Cl)c2)CCC/C1=C\c1ccc(Cl)c(Cl)c1,,,cytopathic effect / MTT,>102 µM
CC(=O)OCCOCn1cc(Cn2cnc3c(N)ncnc32)nn1,IIIB,,cytopathic effect,>100 µg/mL
CC(=O)OCC1=C[C@@H]2C(=O)[C@]3(C=C(C)[C@H](OC(C)=O)[C@@]3(O)[C@@H]1OC(C)=O)[C@H](C)C[C@@H]1[C@H]2C1(C)C,clinical isolate A018C AZT-resistant,,cytopathic effect / MTT,0.096 µM
Cc1cc(/C=C/C#N)cc(C)c1Nc1nc(Nc2ccc(C#N)cc2)ncc1C(O)c1csc2nc(Cl)cn12,PSI (IIIB),,,724 µM
C#CCn1cc(I)c(=O)[nH]c1=O,IIIB,,cytopathic effect,>100 µg/mL
COCCOC(O)c1cnc(Nc2ccc(C#N)cc2)nc1Nc1c(C)cc(/C=C/C#N)cc1C,L100I + K103N,,,0.02399 µM
O=c1[nH]c(=O)n(Cc2cn(COCCO)nn2)cc1I,IIIB,,cytopathic effect,>100 µg/mL
[O-][n+]1nc2c(-c3ccc(F)cc3)cnn2c2cc(Cl)ccc21,IIIB,,cytopathic effect / MTT,>200 µM
CCN1C/C(=C\c2ccc([N+](=O)[O-])c(O)c2)C(=O)/C(=C/c2ccc([N+](=O)[O-])c(O)c2)C1,,,cytopathic effect / MTT,>4 µM
CNC(=O)c1cc(F)ccc1CNC(=O)c1nc(N2CCCCS2(=O)=O)c2cccnc2c1O,,,p24,<5 µM
N#Cc1ccc(Nc2nc(Oc3c(F)cc(-c4ccc(C#N)cc4)cc3F)c3sccc3n2)cc1,IIIB,,MTT,0.0123 µM
O=C1/C(=C/c2cc(O)c(O)c(O)c2)CSC/C1=C\c1cc(O)c(O)c(O)c1,,,cytopathic effect / MTT,20 µM
CNC(O)c1cnc(Nc2ccc(C#N)cc2)nc1Nc1c(C)cc(/C=C/C#N)cc1C,MDR,,,1.58 µM
CC(C)C1=C2[C@H]3CC[C@@H]4[C@@]5(C)CC[C@H](OC(=O)C6C[C@@H](C(=O)O)C6(C)C)C(C)(C)[C@@H]5CC[C@@]4(C)[C@]3(C)CC[C@@]2(NC(=O)C2(NC(=O)c3cccnc3N3CCOCC3)CCC2)CC1=O,NL4-3,,p24,<0.005 µM
Cc1cc(/C=C/C#N)cc(C)c1Nc1nc(Nc2ccc(C#N)cc2)ncc1C(O)OCCO,L100I + K103N,,,0.00912 µM
CC(C)CN(C[C@@H](O)[C@H](Cc1ccccc1)NC(=O)OCc1cncs1)S(=O)(=O)c1ccc2nc(N(C)C(=O)CN(C)C)sc2c1,IIIB,,cytopathic effect / MTT,0.0041 µM
O=[N+]([O-])c1cnn2c1nnc1ccccc12,IIIB,,cytopathic effect / MTT,>0.8 µM
CC(C)C1=C2[C@H]3CC[C@@H]4[C@@]5(C)CC[C@H](OC(=O)C6C[C@@H](C(=O)O)C6(C)C)C(C)(C)[C@@H]5CC[C@@]4(C)[C@]3(C)CC[C@@]2(NC(=O)C(C)(C)NC(=O)c2csc(N)n2)CC1=O,NL4-3,,p24,>0.01 µM
Cc1cc(-c2ccc(C#N)cc2)cc(Cl)c1Oc1nc(Nc2ccc(C#N)cc2)nc2ccsc12,IIIB,,MTT,0.0345 µM
Cc1cc(/C=C/C#N)cc(C)c1Oc1ccnc(Nc2ccc(CN3CCN(S(=O)(=O)N(C)C)CC3)cc2)n1,,Y188L,MTT,>3.07 µM
CC(C)C1=C2[C@H]3CC[C@@H]4[C@@]5(C)CC[C@H](OC(=O)C6C[C@@H](C(=O)O)C6(C)C)C(C)(C)[C@@H]5CC[C@@]4(C)[C@]3(C)CC[C@@]2(NC(=O)C(C)(C)NC(=O)c2ccc(S(C)(=O)=O)cc2)CC1=O,NL4-3,,p24,0.00501–0.01 µM
O=C(O[C@@H]1[C@H](c2c(O)cc(O)c3c2O[C@H](c2ccc(O)c(O)c2)[C@H](OC(=O)c2cc(O)c(O)c(O)c2)C3)c2c(O)cc(O)c([C@H]3c4c(O)cc(O)c([C@@H]5c6c(O)cc(O)cc6O[C@H](c6ccc(O)c(O)c6)[C@@H]5OC(=O)c5cc(O)c(O)c(O)c5)c4O[C@H](c4ccc(O)c(O)c4)[C@@H]3OC(=O)c3cc(O)c(O)c(O)c3)c2O[C@@H]1c1ccc(O)c(O)c1)c1cc(O)c(O)c(O)c1,IIIB,,cytopathic effect / MTT,22.5 µg/mL
Cc1cc(/C=C/C#N)cc(C)c1Nc1nc(Nc2ccc(C#N)cc2)ncc1C(O)C1CCCC1,PSI (IIIB),,,1150 µM
O=C(O)c1cc(O)c(O)c(Oc2c(C(=O)OC3C(OC(=O)c4cc(O)c(O)c(O)c4)OC4COC(=O)c5cc(O)c(O)c(O)c5-c5c(cc(O)c(O)c5O)C(=O)OC4C3OC(=O)c3cc(O)c(O)c(O)c3)cc(O)c(O)c2O)c1,IIIB,,cytopathic effect / MTT,>50 µg/mL
N#Cc1ccc(Nc2nc(Oc3ccc(-c4ccc(C#N)cc4)c(F)c3F)c3sccc3n2)cc1,IIIB,E138K,MTT,0.017 µM
CC(C)CN(C[C@@H](O)[C@H](Cc1ccccc1)NC(=O)OCc1cncs1)S(=O)(=O)c1ccc2nc(N(C)C(=O)CN(C)CCCN3CCCC3)sc2c1,IIIB,,cytopathic effect / MTT,0.0501 µM
O=CC(O)C(OC(=O)c1cc(O)c(O)c(O)c1)C1OC(=O)c2cc(O)c(O)c(O)c2-c2c(cc(O)c(O)c2O)C(=O)OCC1O,IIIB,,cytopathic effect / MTT,2 µg/mL
Cc1cc(/C=C/C#N)cc(C)c1Nc1nc(Nc2ccc(C#N)cc2)ncc1C(O)n1ccnc1,PSI (IIIB),,,501 µM
CC(=O)OCCOCn1cc(Cn2cc(Cl)c(=O)[nH]c2=O)nn1,IIIB,,cytopathic effect,>100 µg/mL
Cc1cc(/C=C/C#N)cc(C)c1Nc1nc(Nc2ccc(C#N)cc2)ncc1C(O)OCc1cccnc1,L100I + K103N,,,0.263 µM
CC(C)C1=C2[C@H]3CC[C@@H]4[C@@]5(C)CC[C@H](OC(=O)C6C[C@@H](C(=O)O)C6(C)C)C(C)(C)[C@@H]5CC[C@@]4(C)[C@]3(C)CC[C@@]2(NC(=O)C(C)(C)NC(=O)c2ccc(N3CCOCC3)cc2)CC1=O,NL4-3,V7A,p24,<0.01 µM
[O-][n+]1nc2c(Br)cnn2c2ccc(Cl)cc21,IIIB,,cytopathic effect / MTT,>200 µM
CCCCOC(=O)c1cc(O)c(O)c(O)c1,IIIB,,cytopathic effect / MTT,>25 µg/mL
Cc1occc1C(=O)NC(C)(C)C(=O)N[C@@]12CC[C@]3(C)[C@H](CC[C@@H]4[C@@]5(C)CC[C@H](OC(=O)C6C[C@@H](C(=O)O)C6(C)C)C(C)(C)[C@@H]5CC[C@]43C)C1=C(C(C)C)C(=O)C2,NL4-3,,p24,0.00501–0.01 µM
Nc1ccn([C@@H]2CC[C@H](CO)O2)c(=O)n1,RF,,MTT,3 µM

For reference, 5 entries again:

compound | strain or isolate | mutations | read by | value
CN(C)C(=O)c1cc(F)ccc1CNC(=O)c1nc(N(C)S(C)(=O)=O)c2cccnc2c1O |  |  | p24 | <5 µM
Cc1cc(/C=C/C#N)cc(C)c1Nc1nc(Nc2ccc(C#N)cc2)ncc1C(O)OCc1cccnc1 | L100I + K103N |  |  | 0.263 µM
COP(=O)(c1cc(C)cc(CCC#N)c1)c1c(C(N)=O)[nH]c2ccc(Cl)c(F)c12 | NL4-3 | Y181C | p24 / ELISA | 0.0039 µM
CC(=O)OCCOCn1cc(Cn2cnc3c(N)ncnc32)nn1 | IIIB |  | cytopathic effect | >100 µg/mL
CC(C)CN(C[C@@H](O)[C@H](Cc1ccccc1)NC(=O)OCc1cncs1)S(=O)(=O)c1ccc2nc(NC(=O)CN3CCNCC3)sc2c1 | IIIB |  | cytopathic effect / MTT | 0.0288 µM

Blank or dashed fields: not listed here. a–b is a range or a potency band. ECn is the concentration giving n% inhibition of infection, replication or growth.